Results deposited as PubChem BioAssay AID1259414 (Drosophila RNAi Screening Center, 2018)

Assay: 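Genome-wide screen for host control of endosymbiont load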 (primary screen)
Cells: Drosophila JW18 cells infected with Wolbachia
Reagents: long dsRNA against Drosophila genes, 0.25 µg dsRNA per well of a 384-well plate
Duration: 5 days
Conditions: cells persistently infected with Wolbachia before knock-down; no added drug
Measured: 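Automated imaging of bacterial rRNA staining divided by host cell count, reported as plate-normalised robust z-score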
Reading the numbers: Wolbachia per cell robust z: higher = more Wolbachia per host cell than the plate typical
Hit rule: 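Active if absolute robust z reaches 1.5 in two or more of three replicates, leaving out multi- or no-target dsRNAs, genes unexpressed in JW18 and A1 wells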
In all, the deposit lists about 24,000 reagents; shown is a random part of those with a known target gene and a result. In the full data, about 1,210 (5%) were called active. 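Inactive calls also include excluded dsRNAs with several or no targets, genes unexpressed in JW18, and well A1, regardless of score.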 Entries without a mark were called inactive.

target	dsRNA	Wolbachia per cell robust z, rep 1	Wolbachia per cell robust z, rep 2	Wolbachia per cell robust z, rep 3
qkr54B (quaking related 54B)	DRSC07670	-1.53 (active)	-2.4	-2.34
qkr54B (quaking related 54B)	DRSC24863	-0.17	-0.26	-0.455
CG9962	DRSC00739	0.951	0.341	0.841
CG9962	DRSC27772	-8.29	-0.599	-0.134
CG9962	DRSC41581	0.658	-0.352	0.103
CG6330	DRSC16022	-0.621	-1.59	-0.83
sel (seele)	DRSC06232	-0.132	-1.33	0.67
D1 (D1 chromosomal protein)	DRSC16638	-0.711	0.208	0.788
Appl (beta amyloid protein precursor-like)	DRSC17728	-0.722	-1.05	-0.297
Appl (beta amyloid protein precursor-like)	DRSC27476	0.253	-0.146	-0.303
Urm1 (Ubiquitin-related modifier 1)	DRSC22941	0.108	0.588	-0.0525
Urm1 (Ubiquitin-related modifier 1)	DRSC29463	0.767	0.0678	0.00927
Urm1 (Ubiquitin-related modifier 1)	DRSC39097	0.0398	-5.78	1.95
CG13868	DRSC06427	1.49	1.08	0.394
CG6280	DRSC06972	-2.4	1.75	0.204
Efa6 (Exchange factor for Arf 6)	DRSC13569	-0.277	0.332	0.471
Efa6 (Exchange factor for Arf 6)	DRSC16141	-3.93	-0.182	0.717
Efa6 (Exchange factor for Arf 6)	DRSC29705	-5.39	0.769	-0.0877
CG17739	DRSC06689	-8.07	0.518	0.332
CG17739	DRSC26518	0.951	-0.141	-0.459
CG6847	DRSC19213	1.12	0.302	1.32
CG6847	DRSC20009	1.32	0.988	0.0149
Gbp3 (Growth-blocking peptide 3)	DRSC15206	0.246	0.295	-0.142
Cpr30B (Cuticular protein 30B)	DRSC02728	-0.552	-11	0.623
Cpr30B (Cuticular protein 30B)	DRSC25204	0.789	1.22	-2.37
Tsp42Eh (Tetraspanin 42Eh)	DRSC06190	0.487	0.689	-4.07
D19A	DRSC11133	1.18	1.3	2.68
D19A	DRSC26967	-0.0541	0.657	0.626
anchor	DRSC10861	0.608	0.637	-0.32
CG13594	DRSC23254	0.814	0.321	-2.39
CG13594	DRSC27243	-2.42	-0.521	-0.0169
CG43901	DRSC19397	-4.38	0.797	-1.08
CG43901	DRSC22791	0.486	-0.689	-1.38
CG43901	DRSC27031	-1.52	0.548	1.21
CG43901	DRSC29119	-0.428	-0.0737	0.115
CG9759	DRSC16558	0.51	-0.794	0.52
CG9759	DRSC26341	1.68	-4.67	-4.75
ssh (slingshot)	DRSC16730	0.589	-0.15	1.03
ssh (slingshot)	DRSC28782	0.0772	1.23	0.385
Naxd (NAD(P)HX dehydratase)	DRSC09722	0.213	0.0455	0.364

Quoted from the entries so far, 6 entries:
target	dsRNA	Wolbachia per cell robust z, rep 1	Wolbachia per cell robust z, rep 2	Wolbachia per cell robust z, rep 3
CG9962	DRSC41581	0.658	-0.352	0.103
CG6330	DRSC16022	-0.621	-1.59	-0.83
sel (seele)	DRSC06232	-0.132	-1.33	0.67
D1 (D1 chromosomal protein)	DRSC16638	-0.711	0.208	0.788
Appl (beta amyloid protein precursor-like)	DRSC17728	-0.722	-1.05	-0.297
Appl (beta amyloid protein precursor-like)	DRSC27476	0.253	-0.146	-0.303

Additional entries:
target	dsRNA	Wolbachia per cell robust z, rep 1	Wolbachia per cell robust z, rep 2	Wolbachia per cell robust z, rep 3
CG7728	DRSC10907	-0.974	0.192	-2.92
CG7728	DRSC28948	0.681	0.881	0.303
CG9143	DRSC07338	0.464	-0.582	0.225
Jasper (JIL-1 anchoring and stabilizing protein)	DRSC16352	0.793	0.255	0.242
CG4982	DRSC10465	-2.41	-1.63	-1.07
CG15210	DRSC19656	0.719	-1.88	-0.52
CG15210	DRSC27768	0.668	0.115	-0.784
Dpp10 (Dipeptidyl peptidase 10)	DRSC00942	1.58	0.768	0.184
Dpp10 (Dipeptidyl peptidase 10)	DRSC02139	1.35	0.523	0.809
CG33333	DRSC13233	-1.7	0.346	-0.814
Sb (Stubble)	DRSC16851	0.81	1.37	0.595
Sb (Stubble)	DRSC29250	-4.95	-0.0203	0.635
CG1142	DRSC12531	-0.142	-0.357	-0.732
CG1142	DRSC27795	-0.185	0.0917	0.853
CG32432	DRSC11744	0.673	1.36	-0.483
X11L	DRSC19958	-0.371	-0.602	0.136
X11L	DRSC19959	-1.72 (active)	0.403	-3.23
X11L	DRSC25616	1.07	0.0728	-0.535
SdhA (Succinate dehydrogenase, subunit A (flavoprotein))	DRSC07547	0.595	0.146	0.653
CG42449	DRSC18084	0.113	-0.00011	-3.68
CG42449	DRSC25316	-2.91	-2.85	-2.26
CG8032	DRSC16365	0.0791	0.834	-1.87
CG8032	DRSC29586	-0.462	-0.131	0.114
pim (pimples)	DRSC03591	3.04 (active)	1.9	0.829
alphaTub85E (alpha-Tubulin at 85E)	DRSC16899	0.582	0.757	2.87
alphaTub85E (alpha-Tubulin at 85E)	DRSC23424	1.03	2.59	-3.96
mthl2 (methuselah-like 2)	DRSC10287	-0.233	-1.01	1.07
mthl2 (methuselah-like 2)	DRSC27003	0.581	0.333	0.289
Dso2 (Daisho2)	DRSC37896	0.0772	1.18	-1.03
CG3376	DRSC04362	0.564	0.165	0.509
CG3376	DRSC26489	0.621	0.318	-1.25
Reck (Reversion-inducing-cysteine-rich protein with kazal motifs)	DRSC10504	-0.588	-0.574	1.85
Reck (Reversion-inducing-cysteine-rich protein with kazal motifs)	DRSC10505	-0.233	0.543	-0.165
CG5762	DRSC15869	-0.851	-0.196	-0.458
CG1418	DRSC06447	0.546	0.625	-3.4
CG1418	DRSC26354	-1.1	0.692	-0.325
RpL7-like (Ribosomal protein L7-like)	DRSC02836	0.142	0.876	0.779
RpL7-like (Ribosomal protein L7-like)	DRSC28314	0.718	-0.392	-0.344
RpL7-like (Ribosomal protein L7-like)	DRSC39019	0.918	0.179	0.181
CG7536	DRSC20050	-3.74	1.06	-0.193
Es2	DRSC18663	-1.97	-0.337	-0.582
Es2	DRSC27829	-0.00039	0.835	0.968
CG31797	DRSC02476	1.76	1.59	0.0525
CG31797	DRSC02477	0.476	1.42	1.34
CG15514	DRSC15053	1.1	0.651	0.308
CG15514	DRSC29785	1.04	1.03	0.736
AstC-R1 (Allatostatin C receptor 1)	DRSC10799	0.762	1.1	-0.36
AstC-R1 (Allatostatin C receptor 1)	DRSC29648	-0.869	-0.305	-1.02
